Values of other authors, collected in US20230399674A1, “METHODS AND COMPOSITIONS FOR DEGRADING DEOXYNIVALENOL” (published 2023).

Settings: well known in the art (Stadler et al. 2019)

3,8,15-trihydroxy-12,13-epoxytrichothec-8-en-7-one
toxicity relative to DON: less toxic than DON
